A mixed list of measured activities; the numbers were collected in NIAID ChemDB.

Shared fields: tests in culture; species: Mycobacterium tuberculosis

MIC50, MIC90 and the like: level of inhibition, or share of isolates inhibited.

smiles,endpoint,strain or isolate,read by,conditions,dose,value
CCC1CC(C)C(O)/C=C/C=C/CC(C)OC(=O)CC(O)C(OC)C1O[C@@H]1O[C@H](C)C[C@@](O)(C(C)=O)[C@H]1O,inhibition,H37Rv,BACTEC,-,12.5 µg/mL,-10%
O=c1[nH]c2ccc(C(F)(F)F)cc2nc1CBr,inhibition,-,-,-,12.5 µg/mL,inactive
COC(=O)c1c[nH]c2c1-c1cc(C(=O)OCc3ccccc3)n(S(=O)(=O)c3ccc(C)cc3)c1C(=O)C2=O,inhibition,H37Rv,resazurin,-,6.25 µg/mL,7%
O=c1cccc(NC(=S)Nc2ncc(C3CCC3)o2)[nH]1,MIC,MDR clinical isolate,agar,-,-,5.39 µM
CCCC(=O)O[C@H]1C[C@H]([C@H](C)CC/C=C(\C)C(=O)O)[C@@]2(C)CC=C3C(=CC[C@H]4C(C)(C)[C@@H](OC(C)=O)CC[C@]34C)[C@]12C,MIC90,H37Ra,GFP,-,-,1.56 µg/mL
C=CCn1c(-c2ccc(N=Nc3c(C)[nH]n(CCO)c3=O)cc2)n[nH]c1=S,EC50,H37Rv,-,-,-,>12.5 µg/mL
CO[C@H]1/C=C/O[C@@]2(C)Oc3c(C)c(O)c4c(O)c(c(/C=N/N5CCN(C)CC5)c(O)c4c3C2=O)NC(=O)/C(C)=C\C=C\[C@H](C)[C@H](O)[C@@H](C)[C@@H](O)[C@@H](C)[C@H](OC(C)=O)[C@@H]1C,MIC90,ATCC 35822 (isoniazid-resistant),-,-,-,1 µM
O=[N+]([O-])c1cccc2c1ccc1nonc12,inhibition,H37Rv,resazurin,-,6.25 µg/mL,80%
Fc1ccc(-n2ncc(C(c3ccccc3)n3ccnc3)c2-c2ccccc2)c(F)c1,MIC90,ATCC 35822 (isoniazid-resistant),-,-,-,≥100 µM
COc1ccccc1-n1c(S[Si](C)(C)C)nc2ccccc2c1=O,MIC,H37Rv,-,-,-,≤10 µg/mL
S=C(Nc1cc(Cl)ccn1)Nc1ncc(C2CCC2)o1,MIC,H37Rv,agar,-,-,0.64 µM
CCCCOC(=O)CSc1nnc(-c2ccc([N+](=O)[O-])s2)s1,MIC,H37Rv,resazurin,-,-,0.78 µg/mL
Cc1c(Cl)[n+](=O)c2cc(Cl)ccc2n1[O-],inhibition,H37Rv,-,-,6.25 µg/mL,100%
NC(=S)C(=S)N1CCCC1,MIC,-,-,-,-,250 µM
CN[C@@H]1[C@H](O[C@H]2[C@H](O[C@H]3[C@H](O)[C@@H](O)[C@H](N=C(N)N)[C@@H](O)[C@@H]3N=C(N)N)O[C@@H](C)[C@]2(O)C=O)O[C@@H](CO)[C@H](O)[C@H]1O,EC50,88 drug-resistant isolates,-,-,-,<100 µg/mL
CCOC(=O)/C(N=Nc1ccc(-c2n[nH]c(=S)n2CC)cc1)=C(\C)O,inhibition,H37Rv,-,-,12.5 µg/mL,0%
O=c1[nH]c2ccc(C(F)(F)F)cc2nc1C(F)(F)F,EC50,-,-,-,-,>12.5 µg/mL
CCN(CC)Cc1cc(N(c2cc(C)nc3cc(Cl)ccc23)S(=O)(=O)c2ccc([N+](=O)[O-])cc2)ccc1O,MIC,H37Rv,agar,-,-,3.12 µg/mL
COc1ccc(/C=C2\SC(=S)N(CCCCNc3ccnc4cc(Cl)ccc34)C2=O)c2ccccc12,MIC,H37Rv,agar,-,-,6.25 µM
Cc1[nH]c2[nH]c(=S)nc(NC(N)=S)c2c1Cc1ccccc1,inhibition,-,BACTEC,-,0.5 µM,0%
CCOC(=O)/C(N=Nc1ccc(-c2n[nH]c(=S)n2-c2ccccc2)cc1)=C(\C)O,MIC,H37Rv,-,-,-,>12.5 µg/mL
CN(CC#CC(C)(C)C)c1cccc2c1CCC(=O)N2,inhibition,H37Rv,-,-,6.25 µg/mL,88%
NNC(=O)c1ccncc1,EC50,86 drug-resistant isolates,-,-,-,<10 µg/mL
Cc1cccc(NC(=S)Nc2ncc(C3CCC3)o2)n1,MIC,H37Rv,agar,-,-,1.35 µM
CCOC(=O)C1=C(Nc2ccc(Br)cc2)OC/C1=N\NC(=O)c1ccccc1O,inhibition,H37Rv,BACTEC,-,12.5 µg/mL,8%
CCC(C)N1CCN(c2cc(=O)c3nc4c(oc3c2)c2c(=O)c3c(O)c(C)c5c(c34)=C(O)[C@@](C)(O/C=C/[C@H](OC)[C@@H](C)[C@@H](OC(C)=O)[C@H](C)[C@H](O)[C@H](C)[C@@H](O)[C@@H](C)/C=C/C=C(/C)C(=O)N2)O5)CC1,MIC90,20 strains,-,-,-,0.07 µg/mL
CCOc1ccc(-n2c(O)c(N=Nc3ccccc3OC)sc2=S)cc1,inhibition,H37Rv,BACTEC,-,12.8 µg/mL,20%
CC1COc2c(N3CCN(C)CC3)c(F)cc3c(=O)c(C(=O)O)cn1c23,inhibition,55 isolates,-,-,1 µg/mL,76%
CC(=O)O[C@H]1C[C@H]([C@H](C)CC/C=C(\C)C(=O)O)[C@@]2(C)CC=C3C(=CC[C@H]4C(C)(C)[C@@H](OC(=O)C(C)C)CC[C@]34C)[C@]12C,MIC90,H37Ra,GFP,-,-,0.781 µg/mL
Clc1ccccc1C(c1ccccc1)(c1ccccc1)n1ccnc1,MIC90,ATCC 35822 (isoniazid-resistant),-,-,-,≥100 µM
O=C(CSc1nnc(-c2ccc([N+](=O)[O-])s2)s1)OCc1ccccc1,MIC,H37Rv,resazurin,-,-,0.78 µg/mL
S=C(S)N1CCN(C(=S)S)CC1,MIC,H37Rv,BACTEC,-,-,≥128 µg/mL
CO[C@H]1/C=C/O[C@@]2(C)Oc3c(C)c(O)c4c(O)c(c(/C=N/N5CCN(C)CC5)c(O)c4c3C2=O)NC(=O)/C(C)=C\C=C\[C@H](C)[C@H](O)[C@@H](C)[C@@H](O)[C@@H](C)[C@H](OC(C)=O)[C@@H]1C,MIC,8666/2010,-,-,-,>9.7 µM
S=C(Nc1ccccc1)Nc1ncc(C2CCC2)o1,MIC,H37Rv,agar,-,-,11.46 µM
Cc1ccc2c(c1)[n+](=O)c(Cl)c(C)n2[O-],inhibition,H37Rv,-,-,6.25 µg/mL,100%
CC(=O)O[C@H]1CC[C@]2(C)C3=CC[C@]4(C)[C@@H]([C@H](C)CC/C=C(\C)C(=O)O)C[C@H](OC(=O)C(C)C)[C@@]4(C)C3=CC[C@H]2C1(C)C,MIC90,H37Ra,GFP,-,-,0.781 µg/mL
CO[C@H]1/C=C/O[C@@]2(C)Oc3c(C)c(O)c4c(=O)c(c5oc6cc(N7CCN(CC(C)C)CC7)cc(=O)c6nc5c4c3=C2O)NC(=O)/C(C)=C\C=C\[C@H](C)[C@H](O)[C@@H](C)[C@@H](O)[C@@H](C)[C@H](OC(C)=O)[C@@H]1C,MIC,H37Rv,-,-,-,0.017 µg/mL
CCC(=O)O[C@H]1C[C@H]([C@H](C)CC/C=C(\C)C(=O)O)[C@@]2(C)CC=C3C(=CC[C@H]4C(C)(C)[C@@H](OC(C)=O)CC[C@]34C)[C@]12C,MIC90,H37Ra,GFP,-,-,0.0977 µg/mL
Cc1ccc(Cn2nnc(-c3cc([N+](=O)[O-])cc([N+](=O)[O-])c3)n2)cc1,MIC,Praha 4,-,21 d,-,0.125 µM
NC(=S)C(=S)N1CCOCC1,MIC,-,-,-,-,31 µM
Clc1ccc(-c2c(C(c3ccccc3)n3ccnc3)cnn2-c2ccc(Cl)cc2Cl)cc1,MIC50,ATCC 35820 (streptomycin-resistant),-,-,-,≥100 µM
Cc1ccc(NC(=S)SCc2ccccc2)cc1Cl,MIC bound,H37Rv,BACTEC,-,-,>12.5 µg/mL
O=C(Cc1ccccc1Nc1c(Cl)cccc1Cl)N/N=C/c1ccccc1Cl,MIC,H37Rv,-,-,-,3.6 µM
NC(=S)C(=S)C(=O)C(=O)N1CCOCC1,MIC,-,-,-,-,>1000 µM
Cc1[nH]n(CCO)c(=O)c1N=Nc1ccc(C(=O)N/N=C/c2ccc(F)cc2)cc1,MIC,H37Rv,-,-,-,>12.5 µg/mL
N#Cc1snc2sc(=O)sc12,inhibition,H37Rv,BACTEC,-,128 µg/mL,100%
Cc1[nH][nH]c(=O)c1N=Nc1ccc(-c2n[nH]c(=S)o2)cc1,EC50,H37Rv,-,-,-,>12.5 µg/mL
Cc1c(S(=O)(=O)c2ccccc2)[n+](=O)c2ccccc2n1[O-],MIC,H37Rv,-,-,-,6.25 µg/mL
Cc1cnc(NC(=S)Nc2ncc(C3CCC3)o2)cc1C,MIC,MDR clinical isolate,agar,-,-,0.62 µM
O=C(Cc1ccccc1Nc1c(Cl)cccc1Cl)N/N=C/c1ccccc1[N+](=O)[O-],MIC,H37Rv,-,-,-,1.76 µM
O=c1[nH]c2cc(C(F)(F)F)ccc2nc1CBr,EC50,-,-,-,-,>12.5 µg/mL
Cc1ccc2[nH]c(=O)c(=O)[nH]c2c1,MIC bound,H37Rv,BACTEC,-,-,>6.25 µg/mL
Fc1ccc(-c2c(C(c3ccccc3)n3ccnc3)cnn2-c2ccc(F)cc2F)cc1,MIC50,ATCC 27294,-,-,-,21.1 µM
Cc1ccc2c(c1)[n+](=O)c(S(=O)(=O)c1ccccc1)c(C)n2[O-],inhibition,H37Rv,-,-,6.25 µg/mL,79%
COc1ccc([N-]/C(=N\n2c(=O)c(C)nn(C)c2=S)N(c2ccc(OC)cc2)c2nn3c(=O)c(C)n[n+](C)c3s2)cc1,inhibition,H37Rv,resazurin,-,6.25 µg/mL,-15%
COc1c(N2CCNC(C)C2)c(F)cc2c(=O)c(C(=O)O)cn(C3CC3)c12,MIC,H37Rv,-,-,-,0.125 µg/mL
NNC(=O)c1ccncc1,MIC90,ATCC 35822 (isoniazid-resistant),-,-,-,≥100 µM
Cc1ccc2c(c1)n([O-])c(CBr)c(Sc1ccccc1)[n+]2=O,inhibition,H37Rv,-,-,6.25 µg/mL,0%
O=C(Cc1ccccc1Nc1c(Cl)cccc1Cl)N/N=C/c1ccccc1O,MIC,H37Rv,-,-,-,7.53 µM
Fc1ccc(-c2c(C(c3ccccc3)n3ccnc3)cnn2-c2ccccc2)cc1,MIC90,ATCC 35828 (pyrazinamide-resistant),-,-,-,≥100 µM
C[C@H]1COc2c(N3CCN(C)CC3)c(F)cc3c(=O)c(C(=O)O)cn1c23,MIC90,25 strains,-,-,-,0.39 µg/mL
CCOC([O-])=N/C(C)=N/[n+]1ccccc1,MIC bound,H37Rv,BACTEC,-,-,>12.5 µg/mL
CC(C)N=c1cc2n(-c3ccc(Cl)cc3)c3ccccc3nc-2cc1Nc1ccc(Cl)cc1,MIC,2227,-,multidrug-resistant,-,0.06 µg/mL
S=C(Nc1cc(Br)cc(Br)n1)Nc1ncc(C2CCC2)o1,MIC,H37Rv,agar,-,-,0.23 µM
CCN(CC)Cc1cc(N(c2cc(C)nc3cc(Cl)ccc23)S(=O)(=O)c2cccc(Cl)c2Cl)ccc1O,MIC,H37Rv,agar,-,-,3.12 µg/mL
CNc1nc(NC)nc(NNC(=O)c2ccccc2)n1,MIC,H37Rv,BACTEC,-,-,≥12.5 µg/mL
CC1COc2c(N3CCN(C)CC3)c(F)cc3c(=O)c(C(=O)O)cn1c23,MIC90,20 strains,-,-,-,0.05–0.1 µg/mL
Cc1ccc(Nc2cc(=S)nc(N)[nH]2)cc1Cl,inhibition,H37Rv,BACTEC,-,12.5 µg/mL,45%
Fc1ccccc1-n1ncc(C(c2ccccc2)n2ccnc2)c1-c1ccccc1,MIC90,ATCC 35822 (isoniazid-resistant),-,-,-,≥100 µM
O=[n+]1c(Sc2ccccc2)c(CBr)n([O-])c2cc(Cl)ccc21,inhibition,H37Rv,-,-,6.25 µg/mL,96%
O=C1CCC2CCC(CC2)O1,inhibition,H37Rv,BACTEC,-,12.5 µg/mL,2%
CCOc1cc2c(cc1F)n([O-])c(C)c(S(=O)(=O)c1ccccc1)[n+]2=O,MIC,H37Rv,-,-,-,6.25 µg/mL
O=C(CCSCCC(=O)N/N=C(\CO)C(O)C(O)C(O)CO)N/N=C(\CO)C(O)C(O)C(O)CO,inhibition,H37Rv,BACTEC,-,12.5 µg/mL,-1%
CCCC(=O)O[C@H]1CC[C@]2(C)C3=CC[C@]4(C)[C@@H]([C@H](C)CC/C=C(\C)C(=O)O)C[C@H](OC(=O)CCC)[C@@]4(C)C3=CC[C@H]2C1(C)C,MIC90,H37Ra,GFP,-,-,>50 µg/mL
NC(Cn1ccc(=O)c(O)c1)C(=O)O,inhibition,H37Rv,BACTEC,-,12.8 µg/mL,0%
CCN(CC)Cc1cc(N(c2cc(C)nc3cc(Cl)ccc23)S(=O)(=O)c2cc(C)cc(C)c2)ccc1O,MIC,H37Rv,agar,-,-,6.25 µg/mL
O=C1CC2C3C1N(c1ccc(Cl)cc1)C1(Nc4ccc(Cl)cc4)C(=O)CC(C31)N2c1ccc(Cl)cc1,MIC bound,H37Rv,resazurin,-,-,>6.25 µg/mL
COc1ccc(-n2c(S[Si](C)(C)C)nc3c(I)cccc3c2=O)cc1,MIC,H37Rv,-,-,-,≤40 µg/mL
C=C(C)[C@@H]1CC[C@]2(C(=O)O)CC[C@]3(C)[C@H](CC[C@@H]4[C@@]5(C)CC[C@H](O)C(C)(C)[C@@H]5CC[C@]43C)[C@@H]12,inhibition,H37Rv,BACTEC,-,6.25 µg/mL,8%
O=C(Cc1ccccc1Nc1c(Cl)cccc1Cl)N/N=C(\c1ccccc1)c1ccc(Br)cc1,MIC,H37Rv,-,-,-,0.36 µM
COc1ccc2[nH]c3c(c2c1)C(=O)c1ccncc1C3=O,MIC,H37Rv,resazurin,-,-,1.56 µg/mL
O=C1/C(=C/c2ccco2)SC(=S)N1CCCCNc1ccnc2cc(Cl)ccc12,MIC,H37Rv,agar,-,-,6.25 µM

A second listing of 6 rows from above:

smiles	endpoint	strain or isolate	read by	conditions	dose	value
C[C@H]1COc2c(N3CCN(C)CC3)c(F)cc3c(=O)c(C(=O)O)cn1c23	MIC90	25 strains	-	-	-	0.39 µg/mL
O=C(CCSCCC(=O)N/N=C(\CO)C(O)C(O)C(O)CO)N/N=C(\CO)C(O)C(O)C(O)CO	inhibition	H37Rv	BACTEC	-	12.5 µg/mL	-1%
Cc1ccc(NC(=S)SCc2ccccc2)cc1Cl	MIC bound	H37Rv	BACTEC	-	-	>12.5 µg/mL
CCCC(=O)O[C@H]1C[C@H]([C@H](C)CC/C=C(\C)C(=O)O)[C@@]2(C)CC=C3C(=CC[C@H]4C(C)(C)[C@@H](OC(C)=O)CC[C@]34C)[C@]12C	MIC90	H37Ra	GFP	-	-	1.56 µg/mL
Cc1cccc(NC(=S)Nc2ncc(C3CCC3)o2)n1	MIC	H37Rv	agar	-	-	1.35 µM
COc1ccc(-n2c(S[Si](C)(C)C)nc3c(I)cccc3c2=O)cc1	MIC	H37Rv	-	-	-	≤40 µg/mL

MIC bound comes from a single tested concentration. "inactive" is the filed call at that dose; no cut-off is given. An empty or dashed field is not shown. Rows are shuffled and stem from different studies. a–b is a range or a potency band. ECn is the concentration giving n% inhibition of infection, replication or growth. Inhibition is in % at the dose shown (toxicity tests: loss of growth or viability).